{"source": "PubChem BioAssay AID624099 (ICCB-Longwood, 2012)", "assay": "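Knock-downs relieving repression by E2 of an HPV18 LCR luciferase reporter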 (primary screen)", "system": "human C33A cervical carcinoma cells (HPV-negative) stably expressing BPV1 E2 and an HPV18 LCR luciferase reporter", "reagents": "siRNA pool against human genes, 40 nM", "duration": "72 h", "detection": "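HPV18 LCR reporter light per well, converted to plate-wise z-scores that exclude control wells, and averaged over triplicate plates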", "direction": "mean z-score and z-score: higher = stronger reporter signal, weaker E2 silencing", "hit rule": "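Mean z ≥ 2 together with z ≥ 2 in two or more of the three replicates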", "note": "In all, the deposit lists about 21,000 reagents; this is a random part of them. 497 of all reagents (2.4%) were called active. 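Higher z means weaker E2 silencing; only reporter increases were scored, and knock-downs that hurt cell survival may mask genuine repressor factors.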 Reagent sequences are not shown."}
{"Gene":"LINC00115 (long independently transcribed non-coding RNA 115)","mean z-score":0.48,"z-score, replicate A":0.94,"z-score, replicate B":0.43,"z-score, replicate C":0.06,"Outcome":"inactive"}
{"Gene":"COG3 (component of oligomeric golgi complex 3)","mean z-score":-0.53,"z-score, replicate A":-0.26,"z-score, replicate B":-0.6,"z-score, replicate C":-0.73,"Outcome":"inactive"}
{"Gene":"LOC402574 (retired record)","mean z-score":0.91,"z-score, replicate A":1.38,"z-score, replicate B":0.52,"z-score, replicate C":0.82,"Outcome":"inactive"}
{"Gene":"LRP8 (LDL receptor related protein 8)","mean z-score":-1.39,"z-score, replicate A":-1.49,"z-score, replicate B":-1.25,"z-score, replicate C":-1.43,"Outcome":"inactive"}
{"Gene":"KLF1 (KLF transcription factor 1)","mean z-score":-1.25,"z-score, replicate A":-1.18,"z-score, replicate B":-1.2,"z-score, replicate C":-1.38,"Outcome":"inactive"}
{"Gene":"ATCAY (ATCAY kinesin light chain interacting caytaxin)","mean z-score":0.95,"z-score, replicate A":1.24,"z-score, replicate B":0.83,"z-score, replicate C":0.77,"Outcome":"inactive"}
{"Gene":"LRRN3 (leucine rich repeat neuronal 3)","mean z-score":0.5,"z-score, replicate A":0.53,"z-score, replicate B":0.5,"z-score, replicate C":0.48,"Outcome":"inactive"}
{"Gene":"MAML1 (mastermind like transcriptional coactivator 1)","mean z-score":-0.59,"z-score, replicate A":-0.31,"z-score, replicate B":-0.73,"z-score, replicate C":-0.71,"Outcome":"inactive"}
{"Gene":"GBP5 (guanylate binding protein 5)","mean z-score":-2.67,"z-score, replicate A":-2.41,"z-score, replicate B":-3.02,"z-score, replicate C":-2.58,"Outcome":"inactive"}
{"Gene":"EGF (epidermal growth factor)","mean z-score":0.32,"z-score, replicate A":0.19,"z-score, replicate B":0.38,"z-score, replicate C":0.39,"Outcome":"inactive"}
{"Gene":"DHX57 (DExH-box helicase 57)","mean z-score":0.43,"z-score, replicate A":0.54,"z-score, replicate B":0.27,"z-score, replicate C":0.49,"Outcome":"inactive"}
{"Gene":"LCN2 (lipocalin 2)","mean z-score":0.23,"z-score, replicate A":0.19,"z-score, replicate B":0.2,"z-score, replicate C":0.28,"Outcome":"inactive"}
{"Gene":"BEGAIN (brain enriched guanylate kinase associated)","mean z-score":-2.01,"z-score, replicate A":-2.08,"z-score, replicate B":-1.83,"z-score, replicate C":-2.13,"Outcome":"inactive"}

Records listed so far whose gene name starts with L or l:
{"Gene":"LINC00115 (long independently transcribed non-coding RNA 115)","mean z-score":0.48,"z-score, replicate A":0.94,"z-score, replicate B":0.43,"z-score, replicate C":0.06,"Outcome":"inactive"}
{"Gene":"LOC402574 (retired record)","mean z-score":0.91,"z-score, replicate A":1.38,"z-score, replicate B":0.52,"z-score, replicate C":0.82,"Outcome":"inactive"}
{"Gene":"LRP8 (LDL receptor related protein 8)","mean z-score":-1.39,"z-score, replicate A":-1.49,"z-score, replicate B":-1.25,"z-score, replicate C":-1.43,"Outcome":"inactive"}
{"Gene":"LRRN3 (leucine rich repeat neuronal 3)","mean z-score":0.5,"z-score, replicate A":0.53,"z-score, replicate B":0.5,"z-score, replicate C":0.48,"Outcome":"inactive"}
{"Gene":"LCN2 (lipocalin 2)","mean z-score":0.23,"z-score, replicate A":0.19,"z-score, replicate B":0.2,"z-score, replicate C":0.28,"Outcome":"inactive"}

Next entries follow:
{"Gene":"CEP63 (centrosomal protein 63)","mean z-score":-0.3,"z-score, replicate A":-0.2,"z-score, replicate B":-0.14,"z-score, replicate C":-0.57,"Outcome":"inactive"}
{"Gene":"C20orf173 (chromosome 20 open reading frame 173)","mean z-score":1.5,"z-score, replicate A":1.67,"z-score, replicate B":1.14,"z-score, replicate C":1.69,"Outcome":"inactive"}
{"Gene":"RIPK3 (receptor interacting serine/threonine kinase 3)","mean z-score":-1.92,"z-score, replicate A":-1.93,"z-score, replicate B":-1.76,"z-score, replicate C":-2.08,"Outcome":"inactive"}
{"Gene":"KRR1 (KRR1 small subunit processome component)","mean z-score":-1.07,"z-score, replicate A":-0.75,"z-score, replicate B":-1.43,"z-score, replicate C":-1.03,"Outcome":"inactive"}
{"Gene":"MAS1L (MAS1 proto-oncogene like, G protein-coupled receptor)","mean z-score":-0.62,"z-score, replicate A":-0.5,"z-score, replicate B":-0.81,"z-score, replicate C":-0.54,"Outcome":"inactive"}
{"Gene":"WDFY4 (WDFY family member 4)","mean z-score":0.48,"z-score, replicate A":0.07,"z-score, replicate B":0.89,"z-score, replicate C":0.49,"Outcome":"inactive"}
{"Gene":"MRPL2 (mitochondrial ribosomal protein L2)","mean z-score":1.31,"z-score, replicate A":1.42,"z-score, replicate B":1.18,"z-score, replicate C":1.32,"Outcome":"inactive"}
{"Gene":"KRTAP12-4 (keratin associated protein 12-4)","mean z-score":0.54,"z-score, replicate A":0.85,"z-score, replicate B":0.43,"z-score, replicate C":0.33,"Outcome":"inactive"}
{"Gene":"LOC388616 (retired record)","mean z-score":0.63,"z-score, replicate A":0.72,"z-score, replicate B":0.41,"z-score, replicate C":0.76,"Outcome":"inactive"}
{"Gene":"MRTO4 (MRT4 homolog, ribosome maturation factor)","mean z-score":-0.35,"z-score, replicate A":-0.47,"z-score, replicate B":-0.13,"z-score, replicate C":-0.46,"Outcome":"inactive"}
{"Gene":"TMEM255B (transmembrane protein 255B)","mean z-score":0.97,"z-score, replicate A":1.17,"z-score, replicate B":0.8,"z-score, replicate C":0.94,"Outcome":"inactive"}
{"Gene":"CYP51A1 (cytochrome P450 family 51 subfamily A member 1)","mean z-score":1.4,"z-score, replicate A":1.42,"z-score, replicate B":1.22,"z-score, replicate C":1.56,"Outcome":"inactive"}
{"Gene":"LRP3 (LDL receptor related protein 3)","mean z-score":0.77,"z-score, replicate A":0.62,"z-score, replicate B":0.88,"z-score, replicate C":0.81,"Outcome":"inactive"}
{"Gene":"IK (IK cytokine)","mean z-score":-0.43,"z-score, replicate A":-0.24,"z-score, replicate B":-0.54,"z-score, replicate C":-0.51,"Outcome":"inactive"}
